Laboratory results: PubChem BioAssay AID624099 (ICCB-Longwood, 2012)

Purpose: 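Host factors E2 relies on to silence an HPV18 LCR reporter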 (primary screen)
Cell system: human C33A cervical carcinoma cells (HPV-negative) stably expressing BPV1 E2 and an HPV18 LCR luciferase reporter
Knock-down reagent: siRNA pool against human genes, 40 nM
Time to read-out: 72 h
Detection: 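HPV18 LCR reporter light per well, converted to plate-wise z-scores that exclude control wells, and averaged over triplicate plates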
Reading the numbers: mean z-score and z-score: higher = stronger reporter signal, weaker E2 silencing
Call rule: 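Mean z ≥ 2 together with z ≥ 2 in two or more of the three replicates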
In all, the deposit lists about 21,000 reagents; this is a random part of them. In the full data, 497 (2.4%) got an active call. 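Higher z means weaker E2 silencing; only reporter increases were scored, and knock-downs that hurt cell survival may mask genuine repressor factors.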 Unmarked entries are inactive. The numbers tell different reagents against one gene apart. Reagent sequences are not shown.

| gene knocked down | pool no. | mean z-score | z-score, replicate A | z-score, replicate B | z-score, replicate C |
| --- | --- | --- | --- | --- | --- |
| NHSL3 | 1 | 1.77 | 1.31 | 1.83 | 2.16 |
| H4C4 | 1 | 0.29 | -0.1 | 0.46 | 0.52 |
| LOC145414 (retired record) | 1 | -0.78 | -0.68 | -1.09 | -0.57 |
| FBXO21 | 1 | 0.58 | 0.66 | 0.47 | 0.6 |
| TAS2R3 | 1 | 1.27 | 1.13 | 1.39 | 1.28 |
| GABRB2 | 1 | -0.12 | -0.2 | -0.12 | -0.06 |
| KLHL35 | 1 | -0.42 | -0.31 | -0.34 | -0.6 |
| BICDL1 | 1 | 0.32 | 0.69 | 0.17 | 0.11 |
| TRMT10C | 1 | -0.6 | -0.74 | -0.61 | -0.47 |
| C4B | 1 | -0.06 | 0.09 | -0.27 | -0.02 |
| C4B | 2 | -0.38 | -0.17 | -0.27 | -0.7 |
| GP1BA | 1 | 0.12 | 0.23 | 0.13 | -0.01 |
| OLIG1 | 1 | -0.39 | -0.75 | -0.1 | -0.33 |
| IMMP2L | 1 | 0.08 | 0.1 | -0.08 | 0.22 |
| DCP1B | 1 | -0.18 | -0.18 | 0.03 | -0.4 |
| ZNF738 | 1 | -0.21 | 0.39 | -0.35 | -0.67 |
| LDHAL6A | 1 | -1.06 | -1.55 | -0.79 | -0.86 |
| HAAO | 1 | -1.15 | -1.39 | -1.15 | -0.92 |

Continued; the last 5 above are carried over.
| gene knocked down | pool no. | mean z-score | z-score, replicate A | z-score, replicate B | z-score, replicate C |
| --- | --- | --- | --- | --- | --- |
| IMMP2L | 1 | 0.08 | 0.1 | -0.08 | 0.22 |
| DCP1B | 1 | -0.18 | -0.18 | 0.03 | -0.4 |
| ZNF738 | 1 | -0.21 | 0.39 | -0.35 | -0.67 |
| LDHAL6A | 1 | -1.06 | -1.55 | -0.79 | -0.86 |
| HAAO | 1 | -1.15 | -1.39 | -1.15 | -0.92 |
| KCNG3 | 1 | 0.59 | 0.75 | 0.47 | 0.55 |
| LINC00272 | 1 | 0.29 | -0.03 | 0.37 | 0.53 |
| PCBP1-AS1 | 1 | -2.05 | -1.88 | -1.94 | -2.32 |
| COL3A1 | 1 | 0.29 | 0.15 | 0.34 | 0.39 |
| SLC9A2 | 1 | 0.31 | 0.5 | 0.39 | 0.04 |
| GRIN2A | 1 | -0.17 | 0.28 | -0.44 | -0.37 |
| DCTN4 | 1 | -0.11 | 0.03 | -0.37 | 0.02 |
| LOC388641 (retired record) | 1 | -0.01 | 0.57 | 0.02 | -0.61 |
| UBR5 | 1 | 0.65 | 0.82 | 0.55 | 0.57 |
| MGC40069 (retired record) | 1 | 1.26 | 1.26 | 1.34 | 1.2 |
| LINC02907 | 1 | 0.66 | 1.06 | 0.66 | 0.26 |
| FBXL3 | 1 | 2.7 (active) | 2.75 | 2.8 | 2.55 |
| LOC402578 (retired record) | 1 | -0.04 | -0.19 | 0.17 | -0.11 |
| DEPDC4 | 1 | 1.77 | 2.07 | 1.61 | 1.63 |
| CCDC18 | 1 | 0.65 | 0.81 | 0.48 | 0.66 |
| MATCAP2 | 1 | 0.28 | 0.09 | 0.43 | 0.33 |
| DUSP2 | 1 | 0.86 | 1.09 | 0.79 | 0.68 |
| CERK | 1 | 0.46 | 0.89 | 0.23 | 0.27 |
| LOC390217 (retired record) | 1 | -0.81 | -0.7 | -0.55 | -1.17 |
| COQ6 | 1 | -0.27 | -0.51 | 0.12 | -0.44 |
| FANCF | 1 | 1.12 | 1.11 | 1.31 | 0.92 |
